Substitutions are numbered along the chain they refer to. Numbers in names are those of the source. Read-outs that look alike come from different tables or passages of the source.

As usually defined, the Kd is the constant that tells how readily two partners part at equilibrium. A high value points to a looser complex. One may read the koff as the rate constant with which the complex falls apart. Higher therefore signals a short-lived complex. In general, kon refers to the second-order rate constant of association. Lower therefore signals slow association.

For assay [1], the target named is T1, H7N9 HA with a T4 foldon trimerization domain (Influenza A virus H7N9, strain not …).
Assay [2] deals with T1, H7N9 HA with a T4 foldon trimerization …. Kind of assay: BLI. Background: In BLI a coated tip is dipped into the sample, and binding shifts an interference pattern.

B1: H:D102I (antibody, V domains shown)
VH: QVQLVESGAEVKKPGASVKVSCKASGYIFTSYDINWVRQATGQGLEWMGWMNPDSGDTGFAQKFQGRVTMTRNTSITTAYMELSSLTSEDTAVYYCATGNAICSGGSCYNWFDPWGQGTLVTVSS
VL: SSELTQDPAVSVALGQTVRITCQGDRLRSYYASWYQQKPGQAPVLVIYGKNNRPSGIPDRFSGSSSGNTASLTITGAQAEDEADYYCNSRDTSGYHLVFGGGTKLTVL
In the case of B1, the binding result in assay [1] is reported as “binds”.

B2: 3L11-6 (3L11 H:S55N) (antibody, V domains shown)
VH: B1 VH with S55N, I102D
VL: B1 VL
notes: Human IgG1
In assay [2], B2 registered a Kd of 2.93 nM, a koff of 0.000337 s⁻¹ and a kon of 102000 M⁻¹ s⁻¹.

B3: 3L11-5 (3L11 L:D25S) (antibody, V domains shown)
VH: B1 VH with I102D
VL: B1 VL with D25S
notes: Human IgG1
In assay [2], B3 came in with a Kd of 12.8 nM, a dissociation rate constant (koff) of 0.00141 s⁻¹ and an on-rate constant (kon) of 108000 M⁻¹ s⁻¹.

B4: H:D102F (antibody, V domains shown)
VH: B1 VH with I102F
VL: B1 VL
Take B4: the binding result in assay [1] is recorded as “binds”.

B5: 3L11-4 (3L11 L:H96N) (antibody, V domains shown)
VH: B1 VH with I102D
VL: B1 VL with H96N
notes: Human IgG1
In assay [2] (one partner purified), B5 yielded a Kd of 11.1 nM, a koff of 0.00126 s⁻¹ and a kon of 108000 M⁻¹ s⁻¹.

B6: 3L11-1 (3L11 L:S93N) (antibody, V domains shown)
VH: B1 VH with I102D
VL: B1 VL with S93N
notes: Human IgG1
As for B6, in assay [2], binding was put at a Kd of 4.52 nM, the koff is 0.000514 s⁻¹ and the on-rate constant (kon) turned out to be 102000 M⁻¹ s⁻¹.

B7: 3L11-2 (3L11 L:S93Y) (antibody, V domains shown)
VH: B1 VH with I102D
VL: B1 VL with S93Y
notes: Human IgG1
In the case of B7, in assay [2], the Kd was 4.95 nM, the koff stood at 0.000583 s⁻¹ and the kon was found to be 106000 M⁻¹ s⁻¹.

B8: 3L11-3 (3L11 L:G94N) (antibody, V domains shown)
VH: B1 VH with I102D
VL: B1 VL with G94N
notes: Human IgG1
In assay [2], B8 yielded a Kd of 6.37 nM, a koff of 0.000689 s⁻¹ and a kon of 100000 M⁻¹ s⁻¹.

B9: 3L11 human antibody (wild type) (antibody, V domains shown)
VH: B1 VH with I102D
VL: B1 VL
In assay [2] (one partner purified), B9 had a Kd of 13.4 nM, a koff of 0.00138 s⁻¹ and a kon of 101000 M⁻¹ s⁻¹.

Values taken from article PMC12400800, “Significantly enhancing human antibody affinity via deep learning and computational biology-guided single-point mutations” (Briefings in Bioinformatics, 2025).
